Anti-infective test results gathered from many reports (values: NIAID ChemDB through PubChem).

Shared fields: tests in culture; agent: Mycobacterium tuberculosis

A number after MIC or MFC names an inhibition level or a share of isolates. Conditions beyond the fields shown may differ between rows. MIC bound comes from a single tested concentration. Percent inhibition refers to the dose given; in toxicity tests it is the harm to the cells. An empty or dashed field is not shown. ECn is the concentration giving n% inhibition of infection, replication or growth.

SMILES,strain or isolate,method,tested at,endpoint,changes,result
CCOC(=O)c1ccc2nc(-c3ccc4c(c3)OCO4)[nH]c2c1,H37Rv,resazurin / fluorescence,-,EC50,-,>100 µM
CC(C)N=c1cc2n(-c3ccc(Cl)cc3)c3ccccc3nc-2cc1Nc1ccc(Cl)cc1,90-0145 (drug-susceptible),-,-,MIC,-,0.2 µg/mL
CO[C@H]1/C=C/O[C@@]2(C)Oc3c(C)c(O)c4c(O)c(c5c(c4c3C2=O)NC2(CCN(CC(C)C)CC2)N=5)=NC(=O)/C(C)=C\C=C\[C@H](C)[C@H](O)[C@@H](C)[C@@H](O)[C@@H](C)[C@H](OC(C)=O)[C@@H]1C,28 (rifampicin-susceptible),-,-,MIC,-,≤0.062 µg/mL
CCOC(=O)c1ccc2c(c1)nc(-c1ccccc1)n2CCN1CCCOC1,H37Rv,resazurin / fluorescence,-,EC50,-,>100 µM
O=[N+]([O-])c1cn2c(n1)OC[C@@H](OCc1ccc(/C=C/c3ccc(C(F)(F)F)cc3)cc1)C2,-,resazurin,-,MIC90,-,0.02 µM
COc1cc(OC)c2c(c1)OC(c1ccc(OC)c(I)c1)CC2=O,-,-,12.5 µg/mL,inhibition,-,0%
O=C(N/N=C/c1ccccc1F)c1ccc(F)cc1,H37Rv,-,-,MIC,-,>6.25 µg/mL
COc1ccc(C2CC(=O)c3ccc(OC)cc3O2)cc1,H37Rv,-,-,EC50,-,>12.5 µg/mL
C=CCn1c(NC2=C(Cl)C(=O)c3ccccc3C2=O)cc(=O)[nH]c1=O,H37Rv,BACTEC,-,MIC bound,-,>12.5 µg/mL
COc1ccc(/C=C/C(=O)c2ccccc2F)cc1,H37Rv,-,-,EC50,-,<12.5 µg/mL
O=[N+]([O-])c1cn2c(n1)OC[C@@H](OCc1ccc(-c3ccc(Oc4ccc(OC(F)(F)F)cc4)cc3)cc1)C2,-,low oxygen,-,MIC90,-,1 µM
O=C1CC(c2ccccc2)Oc2ccc(I)cc21,-,-,-,EC50,-,>12.5 µg/mL
CCOC(=O)c1ccc2nc(-c3cncc(-c4ccc(F)cc4)c3)[nH]c2c1,H37Rv,resazurin / fluorescence,-,EC50,-,>100 µM
NC[C@H]1O[C@H](O[C@H]2[C@H](O)[C@@H](O[C@H]3O[C@H](CO)[C@@H](O)[C@H](N)[C@H]3O)[C@H](N)C[C@@H]2N)[C@H](O)[C@@H](O)[C@@H]1O,H37Rv,-,-,MIC,-,2 µg/mL
COc1cccc(C(=O)N[C@@H]2[C@H](O)[C@@H](CO)O[C@H]2n2cnc3c(N)ncnc32)c1,H37Rv,BACTEC,-,MIC bound,-,>12.5 µg/mL
O=C1CC(c2ccccc2O)Oc2ccccc21,-,-,-,EC50,-,>12.5 µg/mL
Cc1cc(S(=O)(=O)Nc2nnc3cnc4ccccc4n23)c(S)cc1Cl,H37Rv,BACTEC,-,MIC bound,-,>12.5 µg/mL
Clc1nc(Sc2ccc3ccccc3n2)c2[nH]cnc2n1.O,H37Rv,-,6.25 µg/mL,inhibition,-,4%
Nc1ccc2c(c1)S(=O)(=O)c1cc(O)ccc1O2,H37Rv,BACTEC,-,MIC bound,-,>12.5 µg/mL
O=C1c2c(O)cc(O)cc2OC(c2ccc(O)cc2)C1c1c(O[C@@H]2O[C@H](CO)[C@@H](O)[C@H](O)[C@H]2O)cc(O)c2c(=O)cc(-c3ccc(O)cc3)oc12,-,-,12.5 µg/mL,inhibition,-,0%
Fc1ccc(-c2c(C(c3ccccc3)n3ccnc3)cnn2-c2ccccc2)cc1,ATCC 35820 (streptomycin-resistant),-,-,MIC50,-,≥100 µM
CO[C@H]1C[C@H](O[C@H]2CC[C@]3(C=O)[C@H]4CC[C@]5(C)[C@@H](C6=CC(=O)OC6)CC[C@]5(O)[C@@H]4CC[C@]3(O)C2)O[C@H](C)[C@H]1O[C@@H]1O[C@H](CO[C@@H]2O[C@H](CO)[C@@H](O)[C@H](O)[C@H]2O)[C@@H](O)[C@H](O)[C@H]1O,H37Rv,BACTEC,128 µg/mL,inhibition,-,85%
Cc1ccc(CSc2ncnc3nc[nH]c23)cc1,H37Ra,-,-,MIC,-,>12.8 µg/mL
COc1ccc2nc(N/N=C(\C)c3ccccn3)cc(C)c2c1,H37Rv,-,-,MIC,-,6.25 µg/mL
Fc1ccc(-c2c(C(c3ccccc3)n3ccnc3)cnn2-c2ccc(F)cc2)cc1,ATCC 35822 (isoniazid-resistant),-,-,MIC50,-,≥100 µM
O=C1c2ccccc2-c2nn(C(=O)c3ccccc3)c3cccc1c23,18b,resazurin,-,MIC,-,8 µg/mL
CCc1cc(C(N)=S)ccn1,90-0201 (drug-susceptible),-,-,MIC,-,0.25 µg/mL
O=C(N/N=C/c1ccc([N+](=O)[O-])s1)c1ccc([N+](=O)[O-])cc1,H37Rv,-,-,EC50,-,<6.25 µg/mL
CN[C@@H]1[C@H](O[C@H]2[C@H](O[C@H]3[C@H](O)[C@@H](O)[C@H](N=C(N)N)[C@@H](O)[C@@H]3N=C(N)N)O[C@@H](C)[C@]2(O)C=O)O[C@@H](CO)[C@H](O)[C@H]1O,ATCC 35820 (streptomycin-resistant),-,-,MIC90,-,≥100 µM
Cc1ccc(CSc2ccncc2)cc1,H37Ra,-,-,MIC,-,>12.8 µg/mL
O=c1[nH]nc(-c2ccc([N+](=O)[O-])o2)c(=O)[nH]1,H37Rv,BACTEC,-,MIC bound,-,>12.5 µg/mL
CO[C@H]1/C=C/O[C@@]2(C)Oc3c(C)c(O)c4c(O)c(c(/C=N/N5CCN(C)CC5)c(O)c4c3C2=O)NC(=O)/C(C)=C\C=C\[C@H](C)[C@H](O)[C@@H](C)[C@@H](O)[C@@H](C)[C@H](OC(C)=O)[C@@H]1C,XDR,resazurin,-,MIC,-,>100 µg/mL
COC(=O)Cn1ccc2ccc(S(=O)(=O)N3CCCCC3)cc21,18b,resazurin,-,MIC,-,1 µg/mL
Clc1ccc(-c2c(C(c3ccccc3)n3ccnc3)cnn2-c2ccc(Cl)cc2Cl)cc1,ATCC 35822 (isoniazid-resistant),-,-,MIC90,-,>100 µM
CCCCCSc1ncnc2nc[nH]c12,H37Ra,-,-,MIC,-,>12.8 µg/mL
O=C(N=Nc1c(O)[nH]c2ccccc12)c1ccc(F)cc1,H37Rv,-,-,MIC,-,>6.25 µg/mL
Fc1ccc(-n2ncc(C(c3ccccc3)n3ccnc3)c2-c2ccccc2)c(F)c1,ATCC 35822 (isoniazid-resistant),-,-,MIC90,-,≥100 µM
CC[C@@H](CO)NCCN[C@@H](CC)CO,90-0145 (drug-susceptible),-,-,MIC,-,1 µg/mL
NNC(=O)c1ccncc1,ATCC 35820 (streptomycin-resistant),-,-,MIC90,-,1.1 µM
CC(C)CCSc1nc2c(=O)[nH][nH]c(=O)c2n1Cc1ccccc1,H37Rv,BACTEC,12.5 µg/mL,inhibition,-,0%
O=C1CC(c2ccc(O)c(O)c2)Oc2c1c(O)cc(O[C@@H]1O[C@H](CO)[C@@H](O)[C@H](O)[C@H]1O)c2C1C(=O)c2c(O)cc(O)cc2OC1c1ccc(O)cc1,-,-,-,EC50,-,>12.5 µg/mL
NC(=[SH+])[N-]/N=C/c1nccc2ccccc12.[Cl][Cu],H37Rv,BACTEC,-,MIC bound,-,≤12.5 µg/mL
CC1COc2c(N3CCN(C)CC3)c(F)cc3c(=O)c(C(=O)O)cn1c23,Ofloxacin-resistant 12119,broth dilution,-,MIC,-,>4 µg/mL
COc1cccc(C(=O)O/N=C(\C)c2ccccn2)c1OC,Clinical isolate,resazurin,-,MIC,-,8 µg/mL
CCOC(=O)c1ccc2c(c1)nc(-c1ccccc1)n2CCN1CCCC1=O,H37Rv,resazurin / fluorescence,-,EC50,-,48.97 µM
C=CCSc1nc2ccccc2c(=O)n1-c1cc(OC)c(Cl)cc1OC,H37Rv,BACTEC,-,MIC bound,-,>12.5 µg/mL
CCOC(=O)c1ccc2c(c1)nc(-c1ccc(OC)cc1)n2CCN1CCCOC1,H37Rv,resazurin / fluorescence,-,EC90,-,>100 µM
CCOC(=O)[C@H]1O[C@@H]([C@@]2(C)O[C@]3(O[C@]4(C=C[C@H]3O)O[C@H]([C@@H](C)C(=O)[C@@H](C)[C@@H](O)[C@H](C)C[C@H](C)c3c(Cl)cc(C)c(O)c3C(=O)O)[C@@H](C)C[C@H]4C)[C@H](C)[C@H]2OC)C[C@H]1O,KM-R,-,-,MIC,-,6.3 µg/mL
Clc1ccc(-c2c(C(c3ccccc3)n3ccnc3)cnn2-c2ccccc2)cc1,ATCC 35837 (ethambutol-resistant),-,-,MIC50,-,≥100 µM
CC1(C)CC(=O)C2=C(C1)C1=Nc3ccccc3C1=C2,Clinical isolate,resazurin,-,MIC,-,8 µg/mL
CCOC(=O)c1ccc2c(c1)nc(-c1ccc(Cl)cc1)n2CCN1CCCC1=O,H37Rv,resazurin / fluorescence,-,MIC,-,>100 µM
CCn1c2ccc([N+](=O)[O-])cc2c2c([N+](=O)[O-])c(-n3cccc3)ccc21,H37Rv,BACTEC,12.5 µg/mL,inhibition,-,-28%
O=C([C@@H](O)CO)N1CC=C(c2c(F)cc(N3C[C@H](COc4ccon4)OC3=O)cc2F)CC1,linezolid resistant 8.7,-,-,MIC,T460C Cys154Arg,16 µg/mL
c1ccc(-c2c(C(c3ccccc3)n3ccnc3)cnn2-c2ccccc2)cc1,ATCC 35837 (ethambutol-resistant),-,-,MIC90,-,>100 µM
CN[C@@H]1[C@H](O[C@H]2[C@H](O[C@H]3[C@H](O)[C@@H](O)[C@H](N=C(N)N)[C@@H](O)[C@@H]3N=C(N)N)O[C@@H](C)[C@]2(O)C=O)O[C@@H](CO)[C@H](O)[C@H]1O,STR-resistant (ATCC 35820),broth dilution,-,MIC,-,>8 µg/mL
CCOC(=O)c1ccc2c(c1)nc(-c1ccc(O)c(OC)c1)n2CCN1CCCOC1,H37Rv,resazurin / fluorescence,-,MIC,-,100 µM
O=C(N/N=C/c1ccc([N+](=O)[O-])o1)c1ccc(F)cc1,H37Rv,-,6.25 µg/mL,inhibition,-,72%
CCCCN(CCCC)CC(C(=O)Nc1ccc([N+](=O)[O-])cc1[N+](=O)[O-])/C(C)=N/NC(=O)C[N+](C)(C)C.[Cl-],H37Rv,BACTEC,-,MIC bound,-,>12.5 µg/mL
COc1ccc(-c2oc3cc(OC)cc(OC)c3c(=O)c2-c2c(-c3ccc(OC)cc3)oc3cc(OC)cc(OC)c3c2=O)cc1,-,-,-,EC50,-,>12.5 µg/mL
Cc1cccc(CSc2ncccn2)c1,H37Rv,-,6.25 µg/mL,inhibition,-,0%
O=[N+]([O-])c1cn2c(n1)OC[C@@H](OCc1ccc(N3CCC(Oc4ccc(C(F)(F)F)nc4)CC3)cc1)C2,-,resazurin,-,MIC90,-,0.095 µM
CCOC(=O)c1ccc2c(c1)nc(-c1cccc(-c3ccc(F)cc3)c1)n2CCN1CCCOC1,H37Rv,resazurin / fluorescence,-,MIC,-,>100 µM
CN(C)P1(=O)N(c2ccc(Cl)cc2)P(=O)(N(C)C)N1c1ccc(Cl)cc1,H37Rv,BACTEC,-,MIC,-,≥12.5 µg/mL
N[C@@H]1CONC1=O,90-0233 (INH SM-RS),-,-,MIC,-,75 µg/mL
Nc1ccc2c(c1)S(=O)(=O)c1cc(N)ccc1-2,H37Rv,BACTEC,12.5 µg/mL,inhibition,-,26%
Brc1ccccc1-c1nnc2sc(-c3ccncc3)nn12,18b,resazurin,-,MIC,-,8 µg/mL
O=c1[nH]c(=O)c2ncn(-c3ccc([N+](=O)[O-])cn3)c2[nH]1,H37Rv,resazurin,6.25 µg/mL,inhibition,-,-5%
COc1ccc(OC)c(Sc2nc(Cl)nc3nc[nH]c23)c1.O,H37Rv,-,6.25 µg/mL,inhibition,-,36%
C[CH2][Sn]([F])([F])[CH2]C.Cc1cnc2c(ccc3c(C)c(C)cnc32)c1C,H37Rv,BACTEC,-,MIC,-,6.25 µg/mL
O=[N+]([O-])c1cn2c(n1)OC[C@@H](OCc1ccc(N3CCN(S(=O)(=O)c4ccc(OC(F)(F)F)cc4)CC3)cc1)C2,-,low oxygen,-,MIC90,-,11 µM
O=C(O)c1ccccc1/C=N/Nc1ccccn1,H37Rv,BACTEC,12.5 µg/mL,inhibition,-,17%
O=c1c(S(=O)(=O)c2cccc(F)c2)c[nH]c2ccc(F)cc12,18b,resazurin,-,MIC,-,16 µg/mL
O=[n+]1c2ccccc2n([O-])c2cc(Cl)ccc21,H37Rv,BACTEC,-,MIC bound,-,≤12.5 µg/mL
O=[N+]([O-])c1cn2c(n1)OC[C@@H](OCc1ccc(C#Cc3ccc(C(F)(F)F)cc3)cn1)C2,-,resazurin,-,MIC90,-,0.02 µM
CO[C@@H]1C[C@@H](C[C@H]2CC[C@H](C)[C@H]([C@@H](C)C(=O)O)O2)O[C@]2(O[C@](C)([C@H]3CC[C@@](C)([C@@H]4O[C@@H]([C@H]5O[C@@](O)(CO)[C@H](C)C[C@@H]5C)C[C@@H]4C)O3)C[C@H]2C)[C@@H]1C,INH-r,-,-,MIC,-,3.1 µg/mL
CO[C@H]1/C=C/O[C@@]2(C)Oc3c(C)c(O)c4c(O)c(c(/C=N/N5CCN(C)CC5)c(O)c4c3C2=O)NC(=O)/C(C)=C\C=C\[C@H](C)[C@H](O)[C@@H](C)[C@@H](O)[C@@H](C)[C@H](OC(C)=O)[C@@H]1C,92-0492 MDR (INH RIF-resistant),-,-,MIC,-,>32 µg/mL

9 of the rows above, restated:

SMILES	strain or isolate	method	tested at	endpoint	changes	result
O=[n+]1c2ccccc2n([O-])c2cc(Cl)ccc21	H37Rv	BACTEC	-	MIC bound	-	≤12.5 µg/mL
NNC(=O)c1ccncc1	ATCC 35820 (streptomycin-resistant)	-	-	MIC90	-	1.1 µM
CN[C@@H]1[C@H](O[C@H]2[C@H](O[C@H]3[C@H](O)[C@@H](O)[C@H](N=C(N)N)[C@@H](O)[C@@H]3N=C(N)N)O[C@@H](C)[C@]2(O)C=O)O[C@@H](CO)[C@H](O)[C@H]1O	ATCC 35820 (streptomycin-resistant)	-	-	MIC90	-	≥100 µM
Cc1ccc(CSc2ccncc2)cc1	H37Ra	-	-	MIC	-	>12.8 µg/mL
C=CCn1c(NC2=C(Cl)C(=O)c3ccccc3C2=O)cc(=O)[nH]c1=O	H37Rv	BACTEC	-	MIC bound	-	>12.5 µg/mL
O=C1CC(c2ccccc2O)Oc2ccccc21	-	-	-	EC50	-	>12.5 µg/mL
Nc1ccc2c(c1)S(=O)(=O)c1cc(N)ccc1-2	H37Rv	BACTEC	12.5 µg/mL	inhibition	-	26%
COc1cc(OC)c2c(c1)OC(c1ccc(OC)c(I)c1)CC2=O	-	-	12.5 µg/mL	inhibition	-	0%
O=C(N/N=C/c1ccccc1F)c1ccc(F)cc1	H37Rv	-	-	MIC	-	>6.25 µg/mL